Measured values from several laboratories, pooled; numbers as filed in NIAID ChemDB.

All rows: cytotoxicity tests; endpoint: CC50

Blank or dashed fields: not listed here.

structure,method,cells,result
CCOC(=O)CCCCCOc1cccc(CN(C(=O)c2ccc(-c3ccc4ccccc4c3)cc2)C(C)C)c1,,BJ,>20 µM
O=Cc1coc2ccc(F)cc2c1=O,MTT,HTLV-I-bearing MT-4,17 µg/mL
OCC12C(c3ccccc3)C3(CO)C4N(Cc5ccccc5)C1C1(CO)C(C5C=CC=CC5)C4(CO)C3N(Cc3ccccc3)C21,,EPG85-257P,45.5 µM
COc1ccc(-c2cnc3nc(N)nc(N4CCN(C(=O)Cc5cccs5)CC4)c3n2)cc1OC,ATP,Huh7,<10 µM
CCOC(=O)c1cc(NC(=O)c2ccccc2)c(=O)n2c1[nH]c1ccccc12,,HEP-2,40 µg/mL
CSc1nsc(-c2ccc(OCCOc3ccc([N+](=O)[O-])cc3)cc2)c1C#N,,HEP-2/L-929/VERO,1 µM
COc1ccc(-c2cnc3nc(N)nc(N4CCN(C(=O)N(C)c5ccccc5)CC4)c3n2)cc1OC,ATP,Huh7,<10 µM
CC(C)N(Cc1cccc(OCCCCCC(=O)OC(=O)O)c1)C(=O)c1ccc(-c2ccc3[nH]ccc3c2)cc1,,BJ,>20 µM
C=CCn1c(-c2ccc(-n3cncn3)cc2)nc2c(F)cc(F)cc21,neutral red / absorbance,Vero-C-1008,>50 µg/mL
COc1ccc(-c2cnc3nc(N)nc(N4CCN(C(=O)Nc5ccc(Br)cc5)CC4)c3n2)cc1OC,ATP,Huh7,<10 µM
O[C@@H]1[C@H](O)[C@H](O)CO[C@H]1n1c(Br)nc2cc(Cl)c(Cl)cc21,neutral red,SupT1,>104 µM
CCOC(=O)/C=C/[C@H](C[C@@H]1CCNC1=O)NC(=O)/C=C/c1cc2c(cc1Br)OCO2,,H1-HELA,>100 µM
C[C@H]1O[C@H](n2c(Br)nc3cc(Cl)c(Cl)cc32)[C@@H](O)[C@H]1O,ATP,MOLT-3,80 µM
CSc1nsc(-c2ccc(OCCCOc3ccccc3)cc2)c1C#N,,HEP-2/L-929/VERO,>20 µM
C#CCSc1n[nH]c(-c2ccc([N+](=O)[O-])c(C(F)(F)F)c2)n1,MTT,Panc-1,>100 µg/mL
OCC12C(c3ccc(Oc4ccccc4)cc3)C3(CO)C4N(Cc5ccc(Oc6ccccc6)cc5)C1C1(CO)C(C5C=CC(Oc6ccccc6)=CC5)C4(CO)C3N(Cc3ccc(Oc4ccccc4)cc3)C21,,EPG85-257DB,80 µM
Cc1c(Cl)cccc1-c1nc(=S)[nH][nH]1,MTT,THP-1,76.44 µg/mL
CCOC(=O)[C@@]1(C)CC[C@]2(C)CC[C@]3(C)C(=CC(=O)[C@@H]4[C@@]5(C)CC/C(=N\OCc6ccccc6Br)C(C)(C)[C@@H]5CC[C@]43C)[C@@H]2C1,MTT,K562,53.31 µM
CCOC(=O)c1c(C)nc(OCCCNc2ccnc3cc(Cl)ccc23)nc1-c1ccccc1,MTS,MDCK cells,21.1 µM
Cc1ccccc1Cn1c(-c2ccc(-n3cncn3)cc2)nc2c(F)cc(F)cc21,neutral red / absorbance,Vero-C-1008,>50 µg/mL
COc1ccc(-c2cnc3nc(N)nc(N4CCN(CC(=O)N(C)c5ccccc5)CC4)c3n2)cc1OC,ATP,Huh7,<10 µM
CN[C@@H]1[C@H](O[C@@H]2OC[C@@H](O)[C@H](O)[C@H]2O)[C@@H](O)[C@H](O[C@H]2c3cc(C)c(C(=O)N[C@H](C)C(=O)O)c(O)c3-c3c(cc4c(c3O)C(=O)c3cc(OC)cc(O)c3C4=O)[C@@H]2O)O[C@@H]1C,,B16-F10,>500 µg/mL
CC(C)Nc1nc2cc(Cl)c(Cl)cc2n1[C@H]1O[C@@H](CO)[C@H](O)[C@@H]1O,neutral red,SupT1,>108 µM
O=Cc1coc2c(Br)cc(Br)cc2c1=O,MTT,HTLV-I-bearing MT-4,92.3 µg/mL
O=c1[nH]c(=O)n([C@@H]2O[C@H](CO)[C@@H](O)[C@@H]2O)cc1/C=C/Br,,P3HR-1,390 µM
COc1ccc(-c2cnc3nc(N)nc(N4CCN(Cc5ccncc5)CC4)c3n2)cc1OC,ATP,Huh7,10–20 µM
COC(=O)c1c(C)nc(NCCCNc2ccnc3cc(Cl)ccc23)nc1-c1ccccc1,MTS,MDCK cells,1.7 µM
CCOC(=O)c1ccc(OCCOc2ccc(-c3snc(SC)c3C#N)cc2)cc1,,HELA-OHIO,2 µM
COc1ccc(-c2cnc3nc(N)nc(N4CCN(CC5CCCO5)CC4)c3n2)cc1OC,ATP,Huh7,>20 µM
COc1ccc2c(c1)C=C1Cn3c-2c(C2CCCCC2)c2ccc(cc23)C(=O)NS(=O)(=O)N(C)CCOCCN(C)C1=O,resazurin,VERO E6,>50 µM
O[C@@H]1[C@H](O)[C@H](O)CO[C@H]1n1c(Br)nc2cc(Cl)c(Cl)cc21,ATP,MOLT-3,44 µM
CC(Nc1nc(NCC(F)(F)F)c2nc(-c3ccc(F)cc3)cnc2n1)c1ccc(S(N)(=O)=O)cc1,ATP,Huh7,<10 µM
C/C(=N\NC(=O)c1ccc(Cl)cc1)c1cccc(/C(C)=N/NC(=O)c2ccc(Cl)cc2)n1,MTT,HCT116,>100 µM
O=C(Cc1cnc2[nH]c3ccccc3n2c1=O)c1ccccc1,,HEF,40 µg/mL
C=CCSc1n[nH]c(-c2ccc([N+](=O)[O-])c(C(F)(F)F)c2)n1,MTT,Panc-1,>100 µg/mL
Cc1cc2occ(C=O)c(=O)c2cc1Cl,MTT,HTLV-I-bearing MT-4,19.2 µg/mL
S=c1nc(-c2ccc(Cl)cc2)[nH][nH]1,MTT,Panc-1,>100 µg/mL
O=Cc1coc2ccccc2c1=O,MTT,HTLV-I-bearing MT-4,30.8 µg/mL
O=C(CSc1ncccc1C(=O)O)c1ccc(O)c(O)c1,,HOS,70 µM
CCOC(=O)/C=C/[C@H](CCC(N)=O)NC(=O)c1cc2ccccc2s1,,H1-HELA,>100 µM
Fc1ccc(-c2n[nH]c(=S)s2)cc1,MTT,Panc-1,>100 µg/mL
N#Cc1cc(NC(=O)c2ccccc2)c(=O)n2c1[nH]c1ccccc12,,HEP-2,10 µg/mL
C[C@H]1O[C@@H](n2c(NC3CC3)nc3cc(Cl)c(Cl)cc32)[C@H](O)[C@@H]1O,ATP,MOLT-3,>100 µM
CCOC(=O)[C@@]1(C)CC[C@]2(C)CC[C@]3(C)C(=CC(=O)[C@@H]4[C@@]5(C)CC/C(=N\OCc6cccc(Br)c6)C(C)(C)[C@@H]5CC[C@]43C)[C@@H]2C1,MTT,K562,86.53 µM
Oc1ccc(-c2nc(SCC3CC3)n[nH]2)cc1,MTT,THP-1,>100 µg/mL
Cc1c[nH]c2c1C(c1ccc(O)c(O)c1)C(C#N)=C(N)O2,,HOS,50 µM
Cc1ccc(S(=O)(=O)n2c(-c3ccc(-n4cncn4)cc3)nc3c(F)cc(F)cc32)cc1,neutral red / absorbance,Vero-C-1008,>50 µg/mL
Cc1nc(NCCCCNc2ccnc3cc(Cl)ccc23)nc(-c2ccccc2)c1C(=O)OC(C)C,MTS,MDCK cells,0.6 µM
CCOC(=O)/C=C/[C@H](C[C@@H]1CCNC1=O)NC(=O)Nc1cccc2ccccc12,,H1-HELA,>10 µM
CCc1nc2sc(C(N)=O)c(N)c2cc1C,XTT,CEM-SS,190 µM
OC[C@H]1O[C@@H](n2c(Br)nc3cc(Cl)c(Cl)cc32)[C@H](O)[C@@H]1O,,CBL,>87 µM
CCOC(=O)[C@@]1(C)CC[C@]2(C)CC[C@]3(C)C(=CC(=O)[C@@H]4[C@@]5(C)CC/C(=N\OCc6cc(C)nn6C)C(C)(C)[C@@H]5CC[C@]43C)[C@@H]2C1,MTT,K562,24.51 µM
CCn1c(-c2ccc(-n3cncn3)cc2)nc2c(F)cc(F)cc21,neutral red / absorbance,Vero-C-1008,>50 µg/mL
CCOC(=O)/C=C/[C@H](C[C@@H]1CCNC1=O)NC(=O)C1=Cc2cc(Cl)ccc2OC1,,H1-HELA,>100 µM
CCOC(=O)CCCCCOc1cccc(CN(C(=O)c2ccc(-c3cccc(N(C)C)c3)cc2)C(C)C)c1,,BJ,>20 µM
CSc1nsc(-c2ccc(OCCCOc3ccc(C#N)cc3)cc2)c1C#N,,HELA-OHIO,2 µM
CCOC(=O)/C=C/[C@H](C[C@@H]1CCNC1=O)NC(=O)Nc1cc(OC)cc(OC)c1,,H1-HELA,>10 µM
CC(C)N(Cc1cccc(OCCCCCC(=O)OC(=O)O)c1)C(=O)c1ccc(-c2cccc(-c3ccccc3)c2)cc1,,RAJI,>20 µM
Fc1ccc(CNc2nc(NCC(F)(F)F)c3nc(-c4ccc(F)cc4)cnc3n2)cc1,ATP,Huh7,<10 µM
CCOC(=O)c1cc(C#N)c2[nH]c3ccccc3n2c1=O,,HEP-2,>100 µg/mL
O[C@@H]1[C@H](O)CO[C@H]1n1c(Br)nc2cc(Cl)c(Cl)cc21,ATP,MOLT-3,85 µM
CCOC(=O)c1ccc(CO/N=C2\CC[C@]3(C)[C@H]4C(=O)C=C5[C@@H]6C[C@@](C)(C(=O)OCC)CC[C@]6(C)CC[C@@]5(C)[C@]4(C)CC[C@H]3C2(C)C)o1,MTT,CT26,25.26 µM
OC[C@@H]1O[C@@H](n2c(Br)nc3cc(Cl)c(Cl)cc32)[C@H](O)[C@H]1O,ATP,HSB-2,11 µM
N#CCn1c(-c2ccc(-n3cncn3)cc2)nc2c(F)cc(F)cc21,neutral red / absorbance,Vero-C-1008,>50 µg/mL
NNC(=O)c1ccncc1,MTT,Panc-1,>100 µg/mL
COc1ccc(Sc2nc(N)nc3c2ncn3CCOCP(=O)(OCC(F)(F)F)OCC(F)(F)F)cc1,,HB611,>100 µM

9 of the rows above, restated:

O[C@@H]1[C@H](O)CO[C@H]1n1c(Br)nc2cc(Cl)c(Cl)cc21 ; method: ATP ; cells: MOLT-3 ; result: 85 µM
C=CCn1c(-c2ccc(-n3cncn3)cc2)nc2c(F)cc(F)cc21 ; method: neutral red / absorbance ; cells: Vero-C-1008 ; result: >50 µg/mL
Fc1ccc(CNc2nc(NCC(F)(F)F)c3nc(-c4ccc(F)cc4)cnc3n2)cc1 ; method: ATP ; cells: Huh7 ; result: <10 µM
CC(C)Nc1nc2cc(Cl)c(Cl)cc2n1[C@H]1O[C@@H](CO)[C@H](O)[C@@H]1O ; method: neutral red ; cells: SupT1 ; result: >108 µM
Cc1c[nH]c2c1C(c1ccc(O)c(O)c1)C(C#N)=C(N)O2 ; cells: HOS ; result: 50 µM
Fc1ccc(-c2n[nH]c(=S)s2)cc1 ; method: MTT ; cells: Panc-1 ; result: >100 µg/mL
COc1ccc(-c2cnc3nc(N)nc(N4CCN(C(=O)Nc5ccc(Br)cc5)CC4)c3n2)cc1OC ; method: ATP ; cells: Huh7 ; result: <10 µM
COc1ccc(-c2cnc3nc(N)nc(N4CCN(Cc5ccncc5)CC4)c3n2)cc1OC ; method: ATP ; cells: Huh7 ; result: 10–20 µM
CCOC(=O)[C@@]1(C)CC[C@]2(C)CC[C@]3(C)C(=CC(=O)[C@@H]4[C@@]5(C)CC/C(=N\OCc6ccccc6Br)C(C)(C)[C@@H]5CC[C@]43C)[C@@H]2C1 ; method: MTT ; cells: K562 ; result: 53.31 µM

Two numbers with a dash give a range or band. CCn: concentration that lowers growth or viability of the cells by n%. Conditions beyond the fields shown may differ between rows.